According to ChEMBL document CHEMBL1142558, “A new polyether ladder compound produced by the dinoflagellate Karenia brevis” (J Nat Prod, 2005):

Tested on: Gambusia affinis
Experiment: Toxicity against Gambusia affinis assessed as mortality at 1 ug/ml after 7.5 min
Settings: in vivo, 0.125 h

`C=C(C=O)C[C@@H]1C[C@H](O)[C@]2(C)O[C@@H]3C[C@@H]4O[C@@H]5C[C@]6(C)O[C@]7(C)CC[C@@H]8O[C@@H]9C[C@]%10(C)O[C@@H]%11C(C)=CC(=O)O[C@H]%11C[C@H]%10O[C@H]9C[C@@H](C)[C@H]8O[C@H]7C[C@H]6O[C@@]5(C)C/C=C\[C@H]4O[C@H]3C[C@H]2O1` [BREVETOXIN B] was tested, and the Activity was 100%.
